PubChem BioAssay AID1259414 – Drosophila RNAi Screening Center, 2018

Screen: 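Fly genes that alter Wolbachia amount inside host cells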 (primary screen)
System: Drosophila JW18 cells infected with Wolbachia
Reagents: long dsRNA against Drosophila genes, 0.25 µg dsRNA per well of a 384-well plate
Timing: 5 days
Conditions: cells persistently infected with Wolbachia before knock-down; no added drug
Detection: 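Imaged fluorescence in situ signal for Wolbachia 23S rRNA per DAPI-counted host cell, given as a robust z-score within each plate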
Direction: Wolbachia per cell robust z: higher = more Wolbachia per host cell than the plate typical
Call rule: 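Active if absolute robust z reaches 1.5 in two or more of three replicates, leaving out multi- or no-target dsRNAs, genes unexpressed in JW18 and A1 wells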
The screen tested about 24,000 reagents; this is an unselected part of those that have a named target and a result. Over the whole deposit, about 1,210 (5%) got an active call. 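Inactive calls also include excluded dsRNAs with several or no targets, genes unexpressed in JW18, and well A1, regardless of score.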 Names joined by + are all predicted targets of the reagent.

With knock-down of Pdrg1 (GeneID 36034) [DRSC28485] the results were Wolbachia per cell robust z, rep 1 = -2.15; Wolbachia per cell robust z, rep 2 = -0.587; Wolbachia per cell robust z, rep 3 = -3.21; active.
With knock-down of CG5388 (GeneID 42612) [DRSC15789] the results were Wolbachia per cell robust z, rep 1 = 0.753; Wolbachia per cell robust z, rep 2 = 0.688; Wolbachia per cell robust z, rep 3 = 0.191; inactive.
Silencing of Axs + sing [DRSC19333] resulted in: Wolbachia per cell robust z, rep 1 = 0.321; Wolbachia per cell robust z, rep 2 = 1.18; Wolbachia per cell robust z, rep 3 = 0.798; inactive.
l(2)efl (GeneID 37744) [DRSC04698] gave Wolbachia per cell robust z, rep 1 = 0.231; Wolbachia per cell robust z, rep 2 = -7.85; Wolbachia per cell robust z, rep 3 = -0.97; inactive.
Depletion of CG15446 (GeneID 33088) [DRSC20518] resulted in: Wolbachia per cell robust z, rep 1 = 0.609; Wolbachia per cell robust z, rep 2 = -0.991; Wolbachia per cell robust z, rep 3 = 0.503; inactive.
Silencing of CG10344 (GeneID 37565) [DRSC04066] came out at: Wolbachia per cell robust z, rep 1 = 0.039; Wolbachia per cell robust z, rep 2 = -0.92; Wolbachia per cell robust z, rep 3 = 0.646; inactive.
CG10344 (GeneID 37565) [DRSC24394] showed Wolbachia per cell robust z, rep 1 = 0.0372; Wolbachia per cell robust z, rep 2 = -0.356; Wolbachia per cell robust z, rep 3 = -0.74; inactive.

Limited to “Wolbachia per cell robust z, rep 3” (2 entries from above):
CG10344 (GeneID 37565) [DRSC04066]	0.646
CG10344 (GeneID 37565) [DRSC24394]	-0.74

The listing continues:
CG12869 (GeneID 36616) [DRSC06208] gave Wolbachia per cell robust z, rep 1 = 0.435; Wolbachia per cell robust z, rep 2 = 0.0505; Wolbachia per cell robust z, rep 3 = 1.07; inactive.
With knock-down of CG14456 (GeneID 40481) [DRSC11713], the screen gave Wolbachia per cell robust z, rep 1 = 0.402; Wolbachia per cell robust z, rep 2 = -0.628; Wolbachia per cell robust z, rep 3 = 0.641; inactive.
CG14456 (GeneID 40481) [DRSC26740] scored Wolbachia per cell robust z, rep 1 = 0.0875; Wolbachia per cell robust z, rep 2 = -2.88; Wolbachia per cell robust z, rep 3 = -0.474; inactive.
Pfk (GeneID 36060) [DRSC07506] scored Wolbachia per cell robust z, rep 1 = 0.439; Wolbachia per cell robust z, rep 2 = -7.65; Wolbachia per cell robust z, rep 3 = -6.65; active.
Against Pfk (GeneID 36060) [DRSC27413] the deposit lists Wolbachia per cell robust z, rep 1 = -4.97; Wolbachia per cell robust z, rep 2 = -0.204; Wolbachia per cell robust z, rep 3 = -0.251; inactive.
CG34030 (GeneID 3885636) [DRSC38849] showed Wolbachia per cell robust z, rep 1 = -0.183; Wolbachia per cell robust z, rep 2 = -1.17; Wolbachia per cell robust z, rep 3 = -0.746; inactive.
cmb (GeneID 39513) [DRSC09790] showed Wolbachia per cell robust z, rep 1 = 0.44; Wolbachia per cell robust z, rep 2 = -0.243; Wolbachia per cell robust z, rep 3 = 1.28; inactive.
cmb (GeneID 39513) [DRSC25444] showed Wolbachia per cell robust z, rep 1 = -0.208; Wolbachia per cell robust z, rep 2 = -0.899; Wolbachia per cell robust z, rep 3 = -13.6; inactive.
Against cmb (GeneID 39513) [DRSC39052] the deposit lists Wolbachia per cell robust z, rep 1 = -5.64; Wolbachia per cell robust z, rep 2 = 1.46; Wolbachia per cell robust z, rep 3 = -0.852; inactive.
